A mixed list of measured activities; the numbers were collected in NIAID ChemDB.

Shared fields: whole-cell or culture tests; species: HIV-1; read by: p24; read-out: EC50

ECn: concentration that inhibits the pathogen or its effect by n%.

SMILES,strain,changes,cells,value
Nc1nccc2c1ncn2[C@@H]1C[C@H](CO)[C@@H](O)[C@H]1O,A012 PRE-AZT,,PBL,0.141 µM
S=C(NCCc1cccs1)Nc1ccc(Br)cn1,P798-1 Clinical isolate NRTI-resistant,RT-M41L T215Y,PBMC,0.016 µM
COC(=O)[C@@H](NC(=O)[C@@H](NC(=O)CC[C@H](O)[C@H](Cc1ccccc1)NC(=O)[C@H](C)NC(=O)OCc1ccccc1)C(C)C)C(C)C,IIIB,,MOLT-4,<4.2 µM
Oc1cccc(CN(CCN2CCCCC2)CC2CCCN(C3CCCC3)C2)c1,NL4-3,,PBMC,3 µM
Cc1cc(O)cc(C)c1CNC(=O)[C@H](Cc1ccccc1)C[C@H](O)CN1CCN(S(=O)(=O)c2ccc3c(c2)CCN3c2ncccn2)C[C@H]1C(=O)NC(C)(C)C,IIIB,,MT-4,<0.031 µM
CC(=O)N[C@@H](CS)C(=O)O,,,U1,<3000 µM
Cc1cn([C@H]2C[C@H](N=[N+]=[N-])[C@@H](CO)O2)c(=O)[nH]c1=O,IIIB,,MT-2,0.015 µM
CC(C)(C)NC(=O)[C@@H]1C[C@@H]2CCCC[C@@H]2CN1C[C@@H](O)[C@H](Cc1ccccc1)NC(=O)O[C@H]1CCS(=O)(=O)C1,IIIB,,MT-4,<0.364 µM
Cc1cn([C@H]2C[C@H](N=[N+]=[N-])[C@@H](CO)O2)c(=O)[nH]c1=O,IIIB,,CEM,>0.3 µM
CC(=O)c1ccccc1NC(C(N)=O)c1c(Cl)cccc1Cl,IIIB,,MT-4,<0.15 µM
Cc1cn([C@H]2C[C@H](N=[N+]=[N-])[C@@H](COC(=O)C(=O)N[C@H](C(=O)O)C(C)C)O2)c(=O)[nH]c1=O,IIIB,,PBMC,0.015 µM
O=C(NCc1ccc(F)cc1)c1nc(N2CCCCS2(=O)=O)c2cccnc2c1O,HXB2,,,0.004 µM
COC(=O)[C@H](Cc1ccccc1)NP(=O)(O)OC[C@H]1C[C@@H](n2cnc3cnccc32)[C@H](O)[C@@H]1O,LAI,,PBL,0.4 µM
Cc1ccccc1Cc1cccc(C(=O)CC(=O)C(=O)O)c1,NL4-3,,,0.562 µM
CC(C)(C)NC(=O)[C@@H]1C[C@@H]2CCCC[C@@H]2CN1C[C@@H](O)[C@H](Cc1ccccc1)NC(=O)O[C@@H]1CO[C@@H]2OCCC[C@@H]21,IIIB,,MT-4,<0.05 µM
CC(C)c1nc(CN(C)C(=O)N[C@H](C(=O)N[C@@H](Cc2ccccc2)C[C@H](O)[C@H](Cc2ccccc2)NC(=O)OCc2cncs2)C(C)C)cs1,NL4-3,PR-D30N A71V,MT-4,<0.01 µM
CC(C)(C)NC(=O)[C@@H]1C[C@@H]2CCCC[C@@H]2CN1C[C@@H](O)[C@H](Cc1ccccc1)NC(=O)O[C@H]1CO[C@H]2OCCC[C@H]21,IIIB,,MT-4,<0.1 µM
O=c1[nH]cnc2c1ncn2[C@H]1CC[C@@H](CO)O1,IIIB)(ddC,,MT-4,25.3 µM
CC(C)(C)NC(=O)[C@@H]1C[C@@H]2CCCC[C@@H]2CN1C[C@@H](O)[C@H](Cc1ccccc1)NC(=O)[C@H](CC(N)=O)NC(=O)c1ccc2ccccc2n1,NL4-3.C14 (PR L10F V32I M46I I47V I84V T91S),PR-L10F V32I M46I I47V I84V T91S,MT-4,0.003 µM
CC(C)(C)C(=O)c1sc(C(=O)NCc2ccccc2)c(O)c1O,D34 X4,,PBMC,0.4 µM
CC(C)(C)NC(=O)[C@@H]1C[C@@H]2CCCC[C@@H]2CN1C[C@@H](O)[C@H](Cc1ccccc1)NC(=O)O[C@@H]1CO[C@@H]2OCC[C@@H]21,IIIB,,MT-4,<0.2 µM
Cc1cn([C@H]2C[C@H](N=[N+]=[N-])[C@@H](CO)O2)c(=O)[nH]c1=O,IIIB,,PBMC,0.0083 µM
CCN(c1ncccc1NC(C)(C)C)C1CCN(C(=O)c2cc3cc(NS(C)(=O)=O)ccc3[nH]2)CC1,Isolate 461,,PBMC,<0.03 µM
C[C@H](Cn1cnc2c(N)ncnc21)OCP(=O)(O)O,74V (ddI- ddC-resistant RT L74V),RT-L74V,MT-2,2 µM
Cc1cn([C@H]2C[C@H](N=[N+]=[N-])[C@@H](CO)O2)c(=O)[nH]c1=O,BAL R5,,MM + M/M,0.003 µM
Cc1ccnc2c1NC(=O)c1cccnc1N2C1CC1,BaL,RT-P236L,PBMC,0.2 µM
Cc1cn([C@H]2C[C@H](N=[N+]=[N-])[C@@H](CO)O2)c(=O)[nH]c1=O,IIIB,,H9,0.036 µM
CC(C)Nc1cccnc1N1CCN(C(=O)c2cc3cc(NS(C)(=O)=O)ccc3[nH]2)CC1,BaL,RT-V106A,PBMC,2.1 µM
Cn1c(CN(CCN2CCCCC2)CC2CCCN(C3CCCC3)C2)nc2ccccc21,NL4-3,,PBMC,1 µM
CC[C@H](C)[C@H](NC(=O)C(=O)OC[C@H]1O[C@@H](n2cc(C)c(=O)[nH]c2=O)C[C@@H]1N=[N+]=[N-])C(=O)O,IIIB,,PBMC,0.035 µM
Cc1cccc(C)c1OCC(=O)N[C@@H](Cc1ccccc1)[C@H](O)CN1CC[C@@H](Sc2ccncc2)C[C@H]1C(=O)NC(C)(C)C,IIIB,,C8166,0.002 µM
Cc1cc(O)cc(C)c1CNC(=O)[C@H](Cc1ccccc1)C[C@H](O)CN1CCN(S(=O)(=O)c2cccs2)C[C@H]1C(=O)NC(C)(C)C,IIIB,,MT-4,<0.063 µM
Cc1cn([C@H]2C[C@H](N=[N+]=[N-])[C@@H](COC(=O)c3ccncc3)O2)c(=O)[nH]c1=O,IIIB,,MT-2,0.075 µM

Again, the opening 2 rows:

SMILES,strain,changes,cells,value
Nc1nccc2c1ncn2[C@@H]1C[C@H](CO)[C@@H](O)[C@H]1O,A012 PRE-AZT,,PBL,0.141 µM
S=C(NCCc1cccs1)Nc1ccc(Br)cn1,P798-1 Clinical isolate NRTI-resistant,RT-M41L T215Y,PBMC,0.016 µM

Rows are shuffled and stem from different studies. An empty or dashed field is not shown.